Values from PubChem BioAssay AID504761 (Drosophila RNAi Screening Center, 2011).

- Assay: 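Fly genes whose silencing reduces dengue virus type 2 infection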 (primary screen)
- Cell system: D.Mel-2 cells from Drosophila
- Knock-down reagent: long dsRNA against Drosophila genes
- Treatment: infection with dengue virus type 2; dose and infection time not stated
- Detection: 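Per well on two replicate plates, imaging gave the percent of cells positive for viral envelope protein, ranked by infection, and a nuclear count of cells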
- Reading the numbers: infection score: higher = more virus-infected cells; cell count: higher = more cells in the well
- Rule for the call: 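Very low infection ranking in both replicate wells (chance probability at most 0.065), then a retest showing infection dropped 1.5-fold or more at p below 0.05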
- Calls: active = confirmed: knock-down lowers infection; inactive = not picked or not confirmed
In all, the deposit lists about 22,000 reagents; shown is a random part of those that have a named target and a result. In the full data, 116 (0.52%) are marked active. 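Calls depend on retest data that are not deposited; infection was ranked per plate without normalising between plates; the unit of the infection score is not given.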 Raw values vary from plate to plate and are shown uncorrected. A number with no mark means an inactive call. Reagents against one gene are numbered here. Not all columns of the deposit are shown. Not given: the amount of reagent, the time to read-out.

EMC1: infection score, replicate 1 = 6.67; cell count, replicate 1 = 1319
Cyp4d21 #1: infection score, replicate 1 = 2.7; cell count, replicate 1 = 6223
Cyp4d21 #2: infection score, replicate 1 = 2.74; cell count, replicate 1 = 6467
trk: infection score, replicate 1 = 3.29; cell count, replicate 1 = 5949
ArgRS-m: infection score, replicate 1 = 9.93; cell count, replicate 1 = 5729
Doc1 #1: infection score, replicate 1 = 3.19; cell count, replicate 1 = 5582
Doc1 #2: infection score, replicate 1 = 4.59; cell count, replicate 1 = 5751
CG17047: infection score, replicate 1 = 14.5; cell count, replicate 1 = 3692
MESR6 #1: infection score, replicate 1 = 17.8; cell count, replicate 1 = 2697
MESR6 #2: infection score, replicate 1 = 19.5; cell count, replicate 1 = 6174
CG6015 #1: infection score, replicate 1 = 6.36; cell count, replicate 1 = 4154
CG6015 #2: infection score, replicate 1 = 3.93; cell count, replicate 1 = 1068
Fibp #1: infection score, replicate 1 = 10; cell count, replicate 1 = 6769
Fibp #2: infection score, replicate 1 = 0.74; cell count, replicate 1 = 6730
CG13177: infection score, replicate 1 = 2.34; cell count, replicate 1 = 6680
Sardh: infection score, replicate 1 = 15.7; cell count, replicate 1 = 6150
TwdlP: infection score, replicate 1 = 26.7; cell count, replicate 1 = 5351
Rack1 #1: infection score, replicate 1 = 3.35; cell count, replicate 1 = 4748
Rack1 #2: infection score, replicate 1 = 1.23; cell count, replicate 1 = 5780
CG42561: infection score, replicate 1 = 1.39; cell count, replicate 1 = 6260
CG13601: infection score, replicate 1 = 5.16; cell count, replicate 1 = 6322
Jhbp16: infection score, replicate 1 = 4.37; cell count, replicate 1 = 6566
CG12713 #1: infection score, replicate 1 = 5.55; cell count, replicate 1 = 6020
CG12713 #2: infection score, replicate 1 = 12.3; cell count, replicate 1 = 5780
osk: infection score, replicate 1 = 19.9; cell count, replicate 1 = 5117
CG13369 #1: infection score, replicate 1 = 4.47; cell count, replicate 1 = 6459
CG13369 #2: infection score, replicate 1 = 15.9; cell count, replicate 1 = 6560

4 entries from above, set out differently.
| Target gene | reagent | infection score, replicate 1 | cell count, replicate 1 |
| --- | --- | --- | --- |
| Cyp4d21 | 1 | 2.7 | 6223 |
| Cyp4d21 | 2 | 2.74 | 6467 |
| trk | 1 | 3.29 | 5949 |
| ArgRS-m | 1 | 9.93 | 5729 |
